Test results from US20230348569A1 (published 2023).
Substitutions are numbered along the chain they refer to. Read-outs that look alike come from different tables or passages of the source.

B1: mAb11004 (antibody, V domains shown)
VH: QVQLVESGGGVVQPGRSLRLSCVASGFTFSIYGMDWVRQAPGKGLEWVAVISYDGSNKYYADSVKGRFTISRDNSKNTLYLQMNSLRPEDTAVYYCAKDREAAADAFDIWGQGTMVTVSS
VL: DIQMTQSPSSVSASVGDRVTITCRASQGISSWLAWYQQKPGKAPKLLIYAASSLHSGVPSRFSGSGSGTDFTLTISSLQPEDFATYYCQQANSFRLTFGGGTKVEIKR
B2: mAb11004 (antibody, V domains shown)
VH: B1 VH
VL: B1 VL
B3: mAb10966 (antibody, V domains shown)
VH: EVQLVESGGGLVQPGGSLRLSCAASGLTVSSNYMSWVRQAPGKGLEWVSVIYSGGSTFYADSVKGRFTISRDNSKNTLYLQMNSLRPEDTAVYYCAREGRIAATGYGMDVWGQGTTVTVSS
VL: DIQMTQSPSSLSASVGDRVTITCQASQDISNYLNWYQQKPGKAPKLLIYDASNLGTGVPSRFSGSRSGTDFTFTISSLQPEDIATYYCHQYDNLPQTFGPGTKVDIKR
B4: mAb10985 (antibody, V domains shown)
VH: EVQLVESGGGLVQPGRSLRLSCAASGFTFDDYAMHWVRQAPGKGLEWVSGISWNRGSIGYADSVKGRFTISRDNAKNSLYLQMSSLRAEDTALYYCAKDGERWDSVVVPSARNGMDVWGQGTTVTVSS
VL: QSVLTQPPSVSGAPGQRVTISCTGSSSNIGAGYDVHWYQQLPGTAPKLLIYGNSNRPSGVPDRFSGSKSGTSASLAITGLQAEDEADYYCQSYDSSLSGSYVFGTGTKVTVLG
B5: mAb10998 (antibody, V domains shown)
VH: EVQLVESGGGLVHPGGSLRLSCAASGLTVSSNYMSWVRQAPGKGLEWVSVIYSGGSTYYADSVKGRFTISRHNSKNTLFLQMNSLRAEDTAVYYCARDRPITGTTLDVWGQGTTVTVSS
VL: DIQMTQSPSSLFASVGDRVTITCRASQSISSYLNWYQQKPGKAPKLLIYAASSLQSGVPSRFSGSGSGTDFTLTISSLQPEDFAFYYCQQTYSTPPITFGQGTRLEIKR
B6: mAb11006 (antibody, V domains shown)
VH: EVQLVESGGGLVQPGGSLRLSCAASGFIVSRNYMSWVRQAPGKGLEWVSVIYSGGSTFYADSVKGRFTISRHNSKNTLYLQMNSLKAEDTAVYYCARELRGYFDYWGQGTLVTVSS
VL: DIQLTQSPSFLSASVGDRVTITCWASQGISSYLAWYQQKPGKAPKLLIYAASTLQSGVPSRFSGSGSGTEFTLTISSLQPEDFATYYCQLLNSYPYTFGQGTKLEIKR
B7: mAb11008 (antibody, V domains shown)
VH: EVQLVESGGGLVQPGGSLRLSCAASGFTVSSNYMTWVRQAPGKGLEWVSVIYSGGSTFYADSVKGRFTISRHNSENTLYLQMNSLRAEDTAVYYCARDLAAAGTDYWGQGALVTVSS
VL: B6 VL with E81D, L90H, P95L
B8: mAb11008 (antibody, V domains shown)
VH: B7 VH
VL: B6 VL with E81D, L90H, P95L

Key:
[1] = target: T1, SARS-CoV-2 Spike Protein (RBD)(R319-F541).hFc (SARS-CoV-2); assay: Luminex bead assay, supernatant
[2] = target: T2, SARS-CoV-2 Spike Protein (RBD)(R319-F541).mFc (SARS-CoV-2); assay: Luminex bead assay, supernatant
[3] = target: T2, SARS-CoV-2 Spike Protein …; assay: Luminex bead assay, supernatant; remark: listed apart in the source
[4] = target: SARS-COV-2 RBD extracellular domain expressed with a C-terminal mouse IgG2a (SARS-COV-2 RBD-mFc) (SARS-CoV-2); assay: SPR
[5] = target: SARS-CoV-2 spike protein (S-wt, Wuhan-Hu-1, NCBI Accession Number MN908947.3) on VSV-SARS-CoV-2-S … (SARS-CoV-2, UniProt P0DTC2 14-1273); assay: cell-based or functional assay
[6] = target: SARS-CoV-2 RBD extracellular domain expressed with a C-terminal myc-myc-hexahistidine tag (SARS-CoV-2); assay: SPR
[7] = target: T1, SARS-CoV-2 Spike Protein …; assay: Luminex bead assay, supernatant; remark: listed apart in the source

| Binder | Binding signal (MFI) [1] [MFI] | Binding signal (MFI) [2] [MFI] | Binding signal (MFI) [3] [MFI] | also measured |
| --- | --- | --- | --- | --- |
| B1 | 4880 | 4580 | 4300 |  |
| B2 |  |  |  | t½ [4]: 3.01 h |
| B3 |  |  |  | neutralization potency IC50 [5]: 0.1 nM |
| B4 |  |  |  | t½ [6]: 8 min |
| B5 | 1740 | 2230 | 2230 |  |
| B6 | 3980 | 2870 | 1400 | Binding signal (MFI) [7]: 3810 MFI |
| B7 |  |  |  | t½ [4]: 1 h |
| B8 | 2570 | 4260 | 3050 |  |
